Anti-infective test results gathered from many reports (values: NIAID ChemDB through PubChem).

All rows: tests in culture; agent: HIV-1; cells: MT-2; endpoint: fold resistance

An empty or dashed field is not shown. Fold resistance: result on the changed form divided by that on wild type. Lines come from different laboratories, so protocols vary.

smiles	strain or isolate	changes	method	value
Nc1ccn([C@@H]2CO[C@H](CO)S2)c(=O)n1	HXB2D (M1841I)	RT-M184I	RT activity	5.33
Cc1cn([C@H]2C=C[C@@H](CO)O2)c(=O)[nH]c1=O	-	RT-Q151M A62V	cytopathic effect / MTT	>8.9
CC(C)(C)OC(=O)N[C@@H](Cc1ccccc1)[C@H](O)CNC[C@@H](O)[C@H](Cc1ccc(OCC(=O)N2CCOCC2)cc1)NC(=O)OC(C)(C)C	RF	PR-G48V A71T V82A	-	9.3
Nc1ccn([C@H]2CC[C@@H](CO)O2)c(=O)n1	LAI	RT-K65R	p24	3.1
Nc1nc(NC2CC2)c2ncn([C@H]3C=C[C@@H](CO)C3)c2n1	RT Δ.67 T69G K103N	1 (Δ.67+T69G+K103N)	p24	9.9
CC(C)CN(C[C@@H](O)[C@H](Cc1ccccc1)NC(=O)O[C@H]1CCOC1)S(=O)(=O)c1ccc(N)cc1	IIIB	D437N	p24 / ELISA	0.9
O=c1[nH]cnc2c1ncn2[C@@H]1O[C@H](CO)C[C@@H]1F	RT P119S V179D L214F	RT-P119S V179D L214F	p24	2.6
Cc1cn([C@H]2C=C[C@@H](CO)O2)c(=O)[nH]c1=O	Site-directed mutant	RT-K65R Y115F M184V	cytopathic effect / XTT	1.3
Nc1nc(NC2CC2)c2ncn([C@H]3C=C[C@@H](CO)C3)c2n1	-	RT-Q151M	cytopathic effect / MTT	2.2
Nc1ncnc2c1ncn2[C@@H]1O[C@H](CO)C[C@@H]1F	RT F77L/F116Y/Q151M	RT-F77L F116Y Q151M	p24	3.1
O=c1[nH]cnc2c1ncn2[C@H]1CC[C@@H](CO)O1	RT Δ.67 T69G K103N	1 (Δ.67+T69G+K103N)	p24	1.6
Cc1cn([C@H]2C=C[C@@H](CO)O2)c(=O)[nH]c1=O	LAI	RT-K65R	p24	3
C[C@H](Cn1cnc2c(N)ncnc21)OCP(=O)(O)O	M184V (3TC-resistant RT M184V)	RT-M184V	p24	0.706
CCN(c1nc(F)ccc1NC(C)(C)C)C1CCN(C(=O)c2cc3cc(NC(=O)N4CCN(C)CC4)ccc3[nH]2)CC1	IIIB	D437N	p24 / ELISA	1.5
O=c1[nH]cnc2c1ncn2[C@H]1CC[C@@H](CO)O1	RT F77L/F116Y/Q151M	RT-F77L F116Y Q151M	p24	7.3
Nc1nc(N)c2ncn([C@H]3CO[C@@H](CO)O3)c2n1	LAI	RT-K65R	p24	4.5
O=C(O)P(=O)(O)O	HXB2	Remodeled TAMs (K70G V75T L228R K219R)	-	6.4
Cc1cn([C@H]2C[C@H](N=[N+]=[N-])[C@@H](CO)O2)c(=O)[nH]c1=O	NL4-3	RT-I178L T215Y	p24	1.5
Cc1cn([C@H]2C[C@H](N=[N+]=[N-])[C@@H](CO)O2)c(=O)[nH]c1=O	IIIB	L441P	p24 / ELISA	1.6
Nc1nc2c(ncn2[C@H]2CO[C@@H](CO)O2)c(=O)[nH]1	LAI	RT-D67N K70R T215Y K219Q K65R	p24	5
Nc1nc(=O)n([C@@H]2CS[C@H](CO)O2)cc1F	Site-directed mutant	RT-K65R	cytopathic effect / XTT	11
Nc1ccn([C@H]2CC[C@@H](CO)O2)c(=O)n1	P119S(RT-P119S)	RT-P119S	p24	0.9